A mixed list of measured activities; the numbers were collected in NIAID ChemDB.

Shared fields: whole-cell or culture tests; agent: Candida krusei

Percent inhibition refers to the dose given; in toxicity tests it is the harm to the cells. Blank or dashed fields: not listed here. Neighbouring rows are from separate reports. MIC50, MIC90 and the like: level of inhibition, or share of isolates inhibited.

O=C(c1ccccc1)C(c1ccccc1)n1nnc2ccccc21 ; read by: broth dilution ; read-out: MFC ; value: >256 µg/mL
CCCCCn1cc[n+](COCCCCOC[n+]2ccn(CCCCC)c2)c1 ; read by: agar diffusion ; strain or isolate: ATCC 6258 ; read-out: MIC100 ; value: 1338 µM
O=C(c1ccccc1)C(c1ccccc1)n1cnc2ccccc21 ; read by: broth dilution ; read-out: MFC ; value: 128 µg/mL
CCC(C)CC(C)CCCCCCCCC(=O)N[C@H]1C[C@@H](O)[C@H](NCCN)NC(=O)[C@@H]2[C@@H](O)CCN2C(=O)[C@H]([C@H](O)CCN)NC(=O)[C@H]([C@H](O)[C@@H](O)c2ccc(O)cc2)NC(=O)[C@@H]2C[C@@H](O)CN2C(=O)[C@H]([C@@H](C)O)NC1=O ; read by: broth dilution ; strain or isolate: ATCC 27393 ; read-out: MIC50 ; value: 0.25 µg/mL
CC(C)(O)c1cn(-c2ccc([N+](=O)[O-])cc2)nn1 ; read by: broth dilution ; strain or isolate: URM 4802 ; dose: 2048 µg/mL ; read-out: inhibition ; value: 0%
C=CCc1ccc(OC)c(OC)c1 ; read by: turbidity ; strain or isolate: 337 ; read-out: MIC90 ; value: 345 µg/mL
CC(C)(O)c1cn(-c2ccc3ccccc3c2)nn1 ; read by: broth dilution ; strain or isolate: URM 4263 ; dose: 2048 µg/mL ; read-out: inhibition ; value: 0%
C[n+]1ccn(COCCCCCCOCn2cc[n+](C)c2)c1 ; read by: agar diffusion ; strain or isolate: ATCC 6258 ; read-out: MIC100 ; value: 26 µM
Cc1ccc(-n2cc(C(C)(C)O)nn2)cc1C ; read by: broth dilution ; strain or isolate: URM 1059 ; dose: 2048 µg/mL ; read-out: inhibition ; value: 0%
CCCCCCCCCn1cc[n+](COCCCCCOC[n+]2ccn(CCCCCCCCC)c2)c1 ; read by: agar diffusion ; strain or isolate: ATCC 6258 ; read-out: MIC100 ; value: 85 µM
CC(C)(O)c1cn(-c2cccc([N+](=O)[O-])c2)nn1 ; read by: broth dilution ; strain or isolate: URM 934 ; dose: 2048 µg/mL ; read-out: inhibition ; value: 0%
CCCCCCCCCCn1cc[n+](COCCCCCOC[n+]2ccn(CCCCCCCCCC)c2)c1 ; read by: agar diffusion ; strain or isolate: ATCC 6258 ; read-out: MIC100 ; value: 65 µM
Clc1ccc(C(c2ccccc2)n2cncn2)cc1 ; read by: agar ; read-out: MIC90 ; value: 256 µg/mL
CCCCCCCn1cc[n+](COCCCOC[n+]2ccn(CCCCCCC)c2)c1 ; read by: agar diffusion ; strain or isolate: ATCC 6258 ; read-out: MIC100 ; value: 77 µM
Clc1ccc(C(c2ccccc2)n2cnc3ccccc32)cc1 ; read by: broth dilution ; read-out: MFC ; value: >256 µg/mL

A second listing of 2 rows from above:

smiles,read by,strain or isolate,dose,read-out,value
CCCCCCCn1cc[n+](COCCCOC[n+]2ccn(CCCCCCC)c2)c1,agar diffusion,ATCC 6258,-,MIC100,77 µM
Clc1ccc(C(c2ccccc2)n2cnc3ccccc32)cc1,broth dilution,-,-,MFC,>256 µg/mL